Experimental data as given in patent publication US5221665A, “N-substituted amides” (Boehringer Ingelheim Pharmaceuticals, Inc., priority 1991, dated 1993).
≈ marks a conversion by molar mass, not a printed value.

Tests used:
[1] = biological target: Recombitant HIV Proteinase (Human immunodeficiency virus type 1 group M subtype B, UniProt P04585)
[2] = biological target: Polio 3C - Proteinase (Poliovirus type 1, UniProt P03300); assay: Selectivity assay: Polio 3C - Proteinase

CC(C)C(NC(=O)CN(C(=O)[C@@H](NC(=O)c1ccc(C(=O)NS(=O)(=O)c2ccc(Cl)cc2)cc1)C(C)C)C1Cc2ccccc2C1)C(=O)C(F)(F)F (some centres unmarked)
IC50 [1]: 125 µg/mL (≈ 164 µM) | IC50, Polio 3C - Proteinase [2]: > 63 µg/mL
